Consider 30 compounds from patent US20170081323A1 (priority 2015, published 2017).

Molecules are shown by their SMILES. pKi: −log10 of the molar value.

The target of one assay is PB2 cap binding domain (PB2-CBD) (residues 318-483) (Influenza A virus (A/duck/Shantou/4610/2003(H5N1)), UniProt Q2LG68). The experiment in a line: Cap Fluorescence-Polarization Ligand Displacement (CapFP-LD) assay. The note with it: read-out: Fp Ki; displacement of tracer m7GTP-5FAM from PB2-CBD.
For `O=c1[nH]nc2ccc(-c3ccc(Cl)cc3)cn12`, the pKi was 5.55.
Turning to `O=c1[nH]nc2ccc(-c3ccc(-c4ccccc4)cc3)cn12`, the pKi was 3.77.
As to `O=c1[nH]nc2ccc(Oc3ccccc3)cn12`, the pKi was 3.38.
On to `O=c1[nH]nc2ccc(-c3cccc(-c4c(F)cccc4F)c3)cn12`, for which the pKi was 4.86.
Regarding `COc1ccc(-c2ccc3n[nH]c(=O)n3c2)c(Cl)c1`, the pKi was 5.56.
The same measure, in the same setting: then `O=c1[nH]nc2ccc(Br)cn12`, with 3.50; and `O=c1[nH]nc2ccc(-c3cccc(F)c3)cn12`, with 4.45; and `O=c1[nH]nc2ccc(-c3cccc(-c4ccccc4)c3)cn12`, with 4.56.
Same read-out and setting: then `O=c1[nH]nc2ccc(-c3cccc(F)c3F)cn12`, with 4.57; and `O=c1[nH]nc2ccc(-c3ccccc3)cn12`, with 4.48.
Turning to `Cc1ccc(C)c(-c2ccc3n[nH]c(=O)n3c2)c1`, the pKi was 4.64.
On the same count and under the same terms, then `O=c1[nH]nc2ccc(-c3cccc4ccccc34)cn12`, with 4.88.
Consider `O=c1[nH]nc2ccc(-c3ncc(F)cn3)cn12`, for which the pKi is 3.98.
`O=c1[nH]nc2ccc(-c3ccccc3Cl)cn12`: the pKi is 5.49.
The same measure, in the same setting: the value for `O=c1[nH]nc2ccc(-c3cccc(Cl)c3)cn12` was 4.71.

The same assay, now with this note: read-out: Fp; printed as bound without parameter name; displacement of tracer m7GTP-5FAM from PB2-CBD.
`O=c1[nH]nc2cccc(-c3ccccc3)n12`: the pKi was below 4.30.
In the case of `O=c1[nH]nc2ccc(Br)c(Oc3ccccc3)n12`, the pKi is below 4.30.
As for `O=c1[nH]nc2ccc(-c3ccccc3)c(OCC3CC3)n12`, the pKi is below 4.30.
`O=c1[nH]nc2cc(-c3ccccc3)ccn12`: the pKi was below 4.30.
On to `O=c1[nH]nc2cccc(Oc3ccccc3)n12`, for which the pKi was below 4.30.
For `O=c1[nH]nc2n1C(OCC1CC1)CCC2` (stereo not drawn), the pKi was below 4.30.
Consider `O=c1[nH]nc2ccc(-c3ccccc3-c3cccc(F)c3)cn12`, for which the pKi was below 4.30.
With `O=c1[nH]nc2c(-c3ccccc3)cccn12`, the pKi is below 4.30.
Turning to `O=c1[nH]nc2cccc(-c3ncccn3)n12`, the pKi is below 4.30.
As for `O=C1NNC2CCCC(CCC3CC3)N12` (stereo not drawn), the pKi is below 4.30.
For the compound `O=c1[nH]nc2ccc(-c3ccccc3-c3ccncc3)cn12`, the pKi is below 4.30.
For the compound `O=c1[nH]nc2cccc(C#CC3CC3)n12`, the pKi is below 4.30.
Take `O=c1[nH]nc2ccc(-c3ccccc3Cl)c(Oc3ccccc3)n12`: the pKi is below 4.30.
Turning to `O=c1[nH]nc2ccc(-c3ccccc3Cl)c(OCC3CC3)n12`, the pKi was below 4.30.
For the compound `O=c1[nH]nc2ccc(-c3ccccc3-c3ccccc3)cn12`, the pKi was below 4.30.
